Results reported in patent publication US8173610B2 (priority 2005, dated 2012).

System: HCV
Assay: Inhibition of HCV replication in chronically HCV-infected human PBMC (RT-PCR)
Experimental: In addition, the inhibition of HCV replication by epirubicin hydrochloride (BNE00), N3′-acetylepirubicin (BNE01), and N3′,O4′,O14-triacetylepirubicin (BNE02) were analyzed in chronically HCV-infected human peripheral blood monocyte cells (PBMC) cultures which was performed as follows. PBMC were isolated from HCV-infected patients blood by Ficoll Pague centrifugation placed on Petri dishes and cultured in 10% FCS, RPMI medium containing PHA (3 μg/ml) according to Laskus et al. (J Infect Dis. 2000) and enriched with known concentrations of BNE00, BNE01, BNE02 in standard conditions (37° C., 5% CO2). On day 5 and 14 of the culture the cells were collected and after extraction, HCV RNA was […] estimated by real-time Reverse Transcriptase Polymerase Chain Reaction using SYBR Green system (FIG. 3). Semiquantitative estimation of HCV RNA was also performed by Reverse Transcriptase Polymerase Chain Reaction, and visualized after electrophoresis through a 1% agarose gel, using ethidium bromide staining (FIG. 4).

| Compound | Therapeutic Index in PBMC TI90 CC90/IC90 |
| --- | --- |
| COc1cccc2c1C(=O)c1c(O)c3c(c(O)c1C2=O)C[C@@](O)(C(=O)CO)C[C@@H]3O[C@H]1C[C@@H](NC(C)=O)[C@H](O)[C@H](C)O1 [BNE01, N3′-acetyl-4′-epidoxorubicin] | 194.0 |
| COc1cccc2c1C(=O)c1c(O)c3c(c(O)c1C2=O)CC(O)(C(=O)COC(C)=O)CC3OC1CC(NC(C)=O)C(OC(C)=O)C(C)O1 (centres unmarked) [BNE02, N3′, O4′, O14-triacetyl-4′-epidoxorubicin] | 240.0 |
